# Test results taken from US20040097594A1 (priority 1998, published 2004).
# Where two headings read alike, the source gives them in different places. Structures were worked out from names or drawings and are uncertain.
# System: HIV-1 (strain IIIB)
# Experiment: Antiviral Activity Assay in MT4 Cells (propidium iodide based procedure)
# Format: cell-based
# Settings: read-out: IC50 (MT-4 cells), MT4 cells infected with HIV-1 strain IIIB, 5 days, lower line of each compound's entry
# [1] = tested form: mixture of the two diastereomers (3R,3aS)
Compound,IC50 (tested form: 1:1 mixture of the two diastereomers (3R)),IC50 [1]
CN(C)C(=O)CNc1cccc(S(=O)(=O)N(C[C@@H](O)[C@H](Cc2ccccc2)NC(=O)OC2COC3OCCC23)OC2CCCC2)c1 (stereo partly drawn),< 100 nM,–
CN1CCN(c2cccc(S(=O)(=O)N(C[C@@H](O)[C@H](Cc3ccccc3)NC(=O)OC3COC4OCCC34)OC3CCCC3)c2)C1 (stereo partly drawn),–,100 to 500 nM
CS(=O)(=O)NCCNc1cccc(S(=O)(=O)N(C[C@@H](O)[C@H](Cc2ccccc2)NC(=O)OC2COC3OCCC23)OC2CCCC2)c1 (stereo partly drawn),–,< 100 nM
